Results deposited as PubChem BioAssay AID624099 (ICCB-Longwood, 2012).

Aim: 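Human genes that papillomavirus E2 requires to repress the HPV18 LCR promoter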 (primary screen)
Cell system: human C33A cervical carcinoma cells (HPV-negative) stably expressing BPV1 E2 and an HPV18 LCR luciferase reporter
Reagent: siRNA pool against human genes, 40 nM
Timing: 72 h
Measured: 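Per-well luciferase luminescence, z-scored on each plate against the plate mean and SD with control wells left out, then averaged across three replicate plates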
Reading the numbers: mean z-score and z-score: higher = stronger reporter signal, weaker E2 silencing
Hit rule: 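Mean z ≥ 2 together with z ≥ 2 in two or more of the three replicates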
The whole screen tested about 21,000 reagents; shown is a random part of them. 497 of all reagents (2.4%) count as active. 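Higher z means weaker E2 silencing; only reporter increases were scored, and knock-downs that hurt cell survival may mask genuine repressor factors.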

The opening 2 records, ahead of the listing:
LOC123397 (retired record) — mean z-score = 0.05; z-score, replicate A = -0.19; z-score, replicate B = 0.34; z-score, replicate C = 0.02; activity call = inactive
ANKS1A (ankyrin repeat and sterile alpha motif domain containing 1A) — mean z-score = -0.52; z-score, replicate A = -0.86; z-score, replicate B = -0.41; z-score, replicate C = -0.3; activity call = inactive

Main list, repeating the preview:
LOC123397 (retired record) — mean z-score = 0.05; z-score, replicate A = -0.19; z-score, replicate B = 0.34; z-score, replicate C = 0.02; activity call = inactive
ANKS1A (ankyrin repeat and sterile alpha motif domain containing 1A) — mean z-score = -0.52; z-score, replicate A = -0.86; z-score, replicate B = -0.41; z-score, replicate C = -0.3; activity call = inactive
ISYNA1 (inositol-3-phosphate synthase 1) — mean z-score = -1.01; z-score, replicate A = -0.38; z-score, replicate B = -1.17; z-score, replicate C = -1.47; activity call = inactive
KLHDC9 (kelch domain containing 9) — mean z-score = -1.6; z-score, replicate A = -1.74; z-score, replicate B = -1.56; z-score, replicate C = -1.5; activity call = inactive
CHAF1B (chromatin assembly factor 1 subunit B) — mean z-score = 1.75; z-score, replicate A = 2.18; z-score, replicate B = 1.74; z-score, replicate C = 1.33; activity call = inactive
ADPRH (ADP-ribosylarginine hydrolase) — mean z-score = 0.38; z-score, replicate A = 0.38; z-score, replicate B = 0.4; z-score, replicate C = 0.35; activity call = inactive
TMEM263 (transmembrane protein 263) — mean z-score = -0.28; z-score, replicate A = -0.46; z-score, replicate B = -0.47; z-score, replicate C = 0.08; activity call = inactive
ETFRF1 (electron transfer flavoprotein regulatory factor 1) — mean z-score = 0.3; z-score, replicate A = 0.34; z-score, replicate B = 0.3; z-score, replicate C = 0.27; activity call = inactive
APOF (apolipoprotein F) — mean z-score = -1.97; z-score, replicate A = -1.83; z-score, replicate B = -2.15; z-score, replicate C = -1.93; activity call = inactive
DHFR2 (dihydrofolate reductase 2) — mean z-score = 0.02; z-score, replicate A = 0.04; z-score, replicate B = 0.5; z-score, replicate C = -0.47; activity call = inactive
LINC01205 (long independently transcribed non-coding RNA 1205) — mean z-score = 0.81; z-score, replicate A = 0.96; z-score, replicate B = 0.52; z-score, replicate C = 0.95; activity call = inactive
PTPRM (protein tyrosine phosphatase receptor type M) — mean z-score = -0.16; z-score, replicate A = 0.04; z-score, replicate B = -0.08; z-score, replicate C = -0.44; activity call = inactive
LYRM1 (LYR motif containing 1) — mean z-score = -0.78; z-score, replicate A = -1.05; z-score, replicate B = -0.72; z-score, replicate C = -0.57; activity call = inactive
ISL2 (ISL LIM homeobox 2) — mean z-score = -0.42; z-score, replicate A = -0.2; z-score, replicate B = -0.6; z-score, replicate C = -0.47; activity call = inactive
MORC1 (MORC family CW-type zinc finger 1) — mean z-score = 2.47; z-score, replicate A = 2.21; z-score, replicate B = 2.44; z-score, replicate C = 2.76; activity call = active
SWSAP1 (SWIM-type zinc finger 7 associated protein 1) — mean z-score = 0.53; z-score, replicate A = 0.77; z-score, replicate B = 0.48; z-score, replicate C = 0.33; activity call = inactive
BHLHE40 (basic helix-loop-helix family member e40) — mean z-score = 1.13; z-score, replicate A = 0.95; z-score, replicate B = 1.36; z-score, replicate C = 1.07; activity call = inactive
RPS6KB1 (ribosomal protein S6 kinase B1) — mean z-score = 0.08; z-score, replicate A = -0.09; z-score, replicate B = 0.27; z-score, replicate C = 0.06; activity call = inactive
COL4A5 (collagen type IV alpha 5 chain) — mean z-score = -0.96; z-score, replicate A = -0.74; z-score, replicate B = -1.09; z-score, replicate C = -1.03; activity call = inactive
RFX5 (regulatory factor X5) — mean z-score = -1.26; z-score, replicate A = -1.33; z-score, replicate B = -1.25; z-score, replicate C = -1.18; activity call = inactive
CUZD1 (CUB and zona pellucida like domains 1) — mean z-score = 0.07; z-score, replicate A = -0.07; z-score, replicate B = -0.1; z-score, replicate C = 0.39; activity call = inactive
